The text below walks through data of article PMC8450086.

By UniProt entry, the sequences of proteins in these tests, tags left out. Where a name states a change or a piece, a line headed by the entry shows the natural chain unless it says otherwise.
UniProt Q2HR80: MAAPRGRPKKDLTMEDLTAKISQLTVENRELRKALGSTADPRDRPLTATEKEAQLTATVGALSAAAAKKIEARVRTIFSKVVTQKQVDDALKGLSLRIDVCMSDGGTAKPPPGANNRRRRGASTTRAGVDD

pKd: −log10 of the molar value. No signal at the amounts used counts as a negative. At least one verdict was read from the data and is not stated in words by the source. The exact form of at least one protein or probe is not confirmed.

The data set deals with KicGAS (Kaposi sarcoma-associated herpesvirus (KSHV)) (UniProt Q2HR80). Nature of the data set: fluorescence polarization. The conditions noted are these: FP: 400 pg/ul FAM-DNA, buffer and temperature not stated, Hill fits, recombinant protein, residues 1-131, protein details: Avi-His6-SUMO removed (tag-free); for pKd: label: 5' FAM sense strand, letters put together from the description.

With ACTGATCTGTAC [ssISD12], under “label: 5' FAM, single-stranded DNA”, the binding result is given as “no binding”. Take “CCATCAAAGAGAGAAAGAGC (double strand) [45% GC]”: the negative-log Kd (pKd) (Hill n 2.25) was 5.97. Regarding “TACAGATCTACTAGTGATCTATGACTGATCTGTAC (double strand) [ISD35]”, the negative logarithm of the Kd (pKd) (Hill n 1.90) is 6.57.

A word on the pKd: it is −log10 of the Kd, conventionally taken in molar units.
